Anti-infective test results gathered from many reports (values: NIAID ChemDB through PubChem).

Common to all: whole-cell or culture tests; species: HIV-1; cell line: MT-4; read-out: EC50

ECn: concentration that inhibits the pathogen or its effect by n%.

SMILES,strain,mutations,method,result
C=CCNC(=O)CSc1cnc(Nc2ccc(C#N)cc2)nc1Oc1c(C)cc(C#N)cc1C,-,Y181C,MTT,0.0227 µM
O=c1c2ccccc2sn1/N=C/c1ccc(Cl)cc1,-,-,MTT,>26 µM
COCCNC(=O)CSc1cnc(Nc2ccc(C#N)cc2)nc1Oc1c(C)cc(C#N)cc1C,-,E138K,MTT,0.0087 µM
CCOC(=O)c1cn(CC(O)CNc2ccc(C)cc2)cc1-c1ccccc1,IIIB,-,cytopathic effect / MTT,>200 µM
Cc1cc(C#N)cc(C)c1Oc1nc(Nc2ccc(C#N)cc2)ncc1SCC(=O)NCC1CCCO1,-,L100I,MTT,0.0449 µM
Cc1cn([C@H]2C[C@H](N=[N+]=[N-])[C@@H](CO)O2)c(=O)[nH]c1=O,-,EFV-resistant (K103R V179D P225H),MTT,0.02 µM
O=C(NCc1ccc(F)cc1)c1nc2n(c(=O)c1O)CCN(C(=O)C(F)(F)F)C2,-,-,p24,<50 µM
CCOC(=O)c1cc(-c2cccc([N+](=O)[O-])c2)n(-c2cccc(OC)c2)c1C,-,-,cytopathic effect / MTT,>33 µM
N#Cc1ccc(C(=O)C2Oc3ccccc3C3CC(c4ccc(C(=O)NC5CCCC5)cc4)=NN23)cc1,LAI,-,GFP / reporter gene,<1 µM
Cc1cc(C#N)cc(C)c1Oc1nc(Nc2ccc(C#N)cc2)ncc1SCC(=O)NCCN1CCOCC1,-,Y188L,MTT,0.0451 µM
CC(C)(C)NC(=O)c1ccccc1NCC(O)Cn1c(C(=O)NC(C)(C)C)cc2ccccc21,IIIB,-,cytopathic effect / MTT,>27 µM
O=c1c2ccccc2sn1/N=C/c1ccc(O)cc1O,-,EFV-resistant (K103 V179D P225H),MTT,>21 µM
CN1CCC(NC(=O)c2ccc(C3=NN4C(C(=O)c5ccc(F)cc5)Oc5ccccc5C4C3)cc2)CC1,LAI,-,GFP / reporter gene,1–10 µM
Cc1cn([C@H]2C[C@H](N=[N+]=[N-])[C@@H](COP(=O)(O)CO)O2)c(=O)[nH]c1=O,GKV-4046,-,MTT / p24,0.3 µM
Cc1ccc(-c2ncccc2OCC(=O)Nc2ccc(C(N)=O)cc2)cc1,IIIB,-,MTT / absorbance,>105 µM
CCOC(=O)c1cc2c3cc(OC)ccc3c3ccc(N)cc3n2c1C,-,-,cytopathic effect / MTT,100 µM
C#CCOCn1c(C(=C)c2cc(C)cc(C)c2)c(CC)c(=O)[nH]c1=O,IIIB,RT-K103N Y181C,cytopathic effect / MTT,23 µM
CC1(C)c2nc(C(=O)NCc3ccc(F)cc3)c(O)c(=O)n2CCN1CCc1ccccn1,-,-,p24,<1 µM
CCOC(=O)c1cc2c3cc(OC)ccc3c3ccc(N=[N+]=[N-])cc3n2c1C,-,-,cytopathic effect / MTT,>300 µM
O=C(NC1CCCC1)c1ccc(C2=NN3C(C(=O)c4ccc(F)cc4)Oc4ccccc4C3C2)cc1,LAI,-,GFP / reporter gene,<1 µM
Cc1cn([C@H]2C[C@H](N=[N+]=[N-])[C@@H](COP(=O)(O)CI)O2)c(=O)[nH]c1=O,GKV-4046,-,MTT / p24,5 µM
COc1ccc(-c2ncccc2OCC(=O)Nc2ccc(C(N)=O)cc2)cc1,IIIB,-,MTT / absorbance,>176 µM
CC(C)NC(=O)c1ccc(C2=NN3C(C(=O)c4ccc(F)cc4)Oc4ccccc4C3C2)cc1,LAI,-,GFP / reporter gene,<1 µM
COc1ccc(-c2ncccc2OCC(=O)Nc2ccc(S(N)(=O)=O)cc2)cc1,IIIB,-,MTT / absorbance,>243 µM
CC(=O)c1cc(-c2cccc(N=[N+]=[N-])c2)n(-c2ccccc2)c1C,-,-,cytopathic effect / MTT,>18 µM
Cc1ccnc2c1NC(=O)c1cccnc1N2C1CC1,-,A17 (K103N Y181C),MTT,80 µM
O=C(NCc1ccccn1)c1ccc(C2=NN3C(C(=O)c4ccc(F)cc4)Oc4ccccc4C3C2)cc1,LAI,-,GFP / reporter gene,>10 µM
Cc1cc(C#N)cc(C)c1Oc1nc(Nc2ccc(C#N)cc2)ncc1SCC(N)=O,-,L100I,MTT,0.0547 µM
C=C(c1cc(C)cc(C)c1)c1c(CC)c(=O)[nH]c(=O)n1COC/C=C/c1ccccc1,IIIB,-,cytopathic effect / MTT,0.03 µM
CC(=O)N1CCn2c(nc(C(=O)NCc3ccc(F)cc3)c(O)c2=O)C1CN(C)C,-,-,p24,<50 µM
O=c1c2ccccc2sn1/N=C/c1cccc(O)c1,-,EFV-resistant (K103 V179D P225H),MTT,>15 µM
CCOC(=O)c1cn(CC(O)CNc2ccc(C(=O)OC)cc2)cc1-c1ccccc1,IIIB,-,cytopathic effect / MTT,>61.3 µM
Cc1ccc2sn(/N=C/c3ccc([N+](=O)[O-])cc3[N+](=O)[O-])c(=O)c2c1,-,K103N + Y181C,MTT,>100 µM
Cc1cc(C#CCCO)cc(C)c1Oc1ccnc(Nc2ccc(C#N)cc2)n1,IIIB,-,MTT,0.003 µM
CC(=O)N1CCn2c(nc(C(=O)NCc3ccc(F)cc3)c(O)c2=O)C1C,-,-,p24,<50 µM
Cc1ccnc2c1NC(=O)c1cccnc1N2C1CC1,-,F227L + V106A,MTT,>2.141 µM
O=c1c2ccccc2sn1/N=C/c1ccccc1O,-,EFV-resistant (K103 V179D P225H),MTT,>18 µM
O=C(COc1cccnc1-c1cccc2ccccc12)Nc1cccnc1Cl,IIIB,-,MTT / absorbance,10.8 µM
CCOCn1c(Cc2ccccc2)c(C(C)C)c(=O)[nH]c1=O,IIIB,RT-Y181C,cytopathic effect / MTT,44 µM
Cc1ccc2sn(/N=C/c3ccccc3O)c(=O)c2c1,-,EFV-resistant (K103 V179D P225H),MTT,>30 µM
C=C(c1cc(C)cc(C)c1)c1c(CC)c(=O)[nH]c(=O)n1COC/C(C)=C/c1ccccc1,IIIB,RT-Y181C,cytopathic effect / MTT,7 µM
COC(=O)c1ccccc1NCC(O)Cn1c(C(=O)NC(C)(C)C)cc2cc(Cl)ccc21,IIIB,-,cytopathic effect / MTT,>112 µM
Cc1cc(C#N)cc(C)c1Oc1nc(Nc2ccc(C#N)cc2)ncc1SCC(=O)NC1CCN(C(=O)OC(C)(C)C)CC1,-,F227L V106A,MTT,0.3389 µM
NS(=O)(=O)c1ccc(NC(=O)COc2cccnc2-c2cccc3ccccc23)cc1,RES056,-,MTT / absorbance,>143 µM
CNC(=O)c1cc(F)ccc1CNC(=O)c1nc2n(c(=O)c1O)CCN(C)C2(C)C,-,-,p24,<1 µM
Cc1cc(C#N)cc(C)c1Oc1nc(Nc2ccc(C#N)cc2)ncc1SCC(=O)NCCN1CCN(C(=O)OC(C)(C)C)CC1,-,L100I,MTT,0.0702 µM

A second listing of 6 rows from above:

SMILES	strain	mutations	method	result
O=c1c2ccccc2sn1/N=C/c1ccc(Cl)cc1	-	-	MTT	>26 µM
CCOC(=O)c1cc(-c2cccc([N+](=O)[O-])c2)n(-c2cccc(OC)c2)c1C	-	-	cytopathic effect / MTT	>33 µM
C#CCOCn1c(C(=C)c2cc(C)cc(C)c2)c(CC)c(=O)[nH]c1=O	IIIB	RT-K103N Y181C	cytopathic effect / MTT	23 µM
COc1ccc(-c2ncccc2OCC(=O)Nc2ccc(S(N)(=O)=O)cc2)cc1	IIIB	-	MTT / absorbance	>243 µM
O=c1c2ccccc2sn1/N=C/c1cccc(O)c1	-	EFV-resistant (K103 V179D P225H)	MTT	>15 µM
CC(=O)N1CCn2c(nc(C(=O)NCc3ccc(F)cc3)c(O)c2=O)C1C	-	-	p24	<50 µM

Rows are shuffled and stem from different studies. Blank or dashed fields: not listed here. Two numbers with a dash give a range or band.